Share of PSTVd loop 15 variants by leaf site

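Three N. benthamiana plants were inoculated with the whole mutant pool. Progeny were sequenced from the inoculated region (day 5), the margin of the inoculated leaf (day 10) and systemic leaves (day 12).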

The pool varies loop 15 of the PSTVd intermediate strain in the pattern GGAAACCGNNNNNNC; wild type is GGAAACCGCUACUAC (upper and lower strand joined, each 5' to 3', the first 7 letters being the upper strand, closing pairs included).

Values are reads per thousand in the sample; higher means more abundant, 0 means not found. Each value is the mean of three plants. "Pool" is the share in the plasmid pool used as inoculum, on the same scale. The inoculated region was read from the minus strand, the other sites from the plus strand. For reference, wild type rose from 33.9 per thousand in the pool to 202, 200, 159 (inoculated region), 724, 746, 710 (leaf margin) and 856, 883, 880 (systemic leaves).

| # | sequence | pool | inoculated region | leaf margin | systemic leaves |
|---|---|---|---|---|---|
| 1 | GGAAACCGAACGGAC | 0.288 | 0.0976 | 0.00539 | 0 |
| 2 | GGAAACCGAAUCCCC | 0.288 | 0.0685 | 0.00668 | 0 |
| 3 | GGAAACCGAAUGCAC | 0.304 | 0.0876 | 0 | 0 |
| 4 | GGAAACCGACAUGUC | 0.288 | 0.0732 | 0.00668 | 0 |
| 5 | GGAAACCGACCAGCC | 0.336 | 0.0398 | 0.00668 | 0 |
| 6 | GGAAACCGACCGGGC | 0.160 | 0.154 | 0.00539 | 0.00537 |
| 7 | GGAAACCGACCGGUC | 0.272 | 0.370 | 0.0985 | 0.0568 |
| 8 | GGAAACCGACUCAUC | 0.224 | 0.226 | 0.0256 | 0.00537 |
| 9 | GGAAACCGACUCUCC | 0.208 | 0.136 | 0.0128 | 0 |
| 10 | GGAAACCGACUUGCC | 0.176 | 0.110 | 0.0134 | 0 |
| 11 | GGAAACCGAGAACAC | 0.176 | 0.413 | 0.119 | 0.0161 |
| 12 | GGAAACCGAGCCCUC | 0.176 | 0.103 | 0 | 0.00760 |
| 13 | GGAAACCGAGUUAUC | 0.320 | 0.0940 | 0.0282 | 0.00537 |
| 14 | GGAAACCGAUACAAC | 0.240 | 0.273 | 0.130 | 0.0360 |
| 15 | GGAAACCGCACACGC | 0.144 | 0.0644 | 0.0128 | 0 |
| 16 | GGAAACCGCAGAGAC | 0.208 | 0.0941 | 0.0200 | 0 |
| 17 | GGAAACCGCAGCGCC | 0.288 | 0.0774 | 0.00668 | 0 |
| 18 | GGAAACCGCAGUUAC | 0.224 | 0.297 | 0.130 | 0.0161 |
| 19 | GGAAACCGCAUUCAC | 0.128 | 0.108 | 0 | 0 |
| 20 | GGAAACCGCCAGCUC | 0.128 | 0.277 | 0.0983 | 0 |
| 21 | GGAAACCGCCGCGAC | 0.128 | 0.127 | 0.0349 | 0 |
| 22 | GGAAACCGCCGCUAC | 0.192 | 0.314 | 0.138 | 0.0591 |
| 23 | GGAAACCGCCGGAAC | 0.256 | 0.311 | 0.137 | 0.0694 |
| 24 | GGAAACCGCCUUCGC | 0.240 | 0.0667 | 0 | 0 |
| 25 | GGAAACCGCGGGAGC | 0.192 | 0.114 | 0.0403 | 0 |
| 26 | GGAAACCGCGUAUGC | 0.208 | 0.0686 | 0 | 0 |
| 27 | GGAAACCGCUACAAC | 0.384 | 0.478 | 0.281 | 0.152 |
| 28 | GGAAACCGCUACUCC | 2.27 | 1.55 | 1.82 | 1.11 |
| 29 | GGAAACCGCUCCCUC | 0.144 | 0.0739 | 0.0121 | 0 |
| 30 | GGAAACCGCUUCGUC | 0.192 | 0.101 | 0.00668 | 0 |
| 31 | GGAAACCGGAAAACC | 0.272 | 0.0947 | 0.0108 | 0 |
| 32 | GGAAACCGGACAAGC | 0.112 | 0.113 | 0.00742 | 0 |
| 33 | GGAAACCGGAGCGAC | 0.160 | 0.192 | 0.0141 | 0 |
| 34 | GGAAACCGGAUCAAC | 0.176 | 0.0974 | 0.0187 | 0 |
| 35 | GGAAACCGGCAUCGC | 0.240 | 0.108 | 0.00539 | 0 |
| 36 | GGAAACCGGCCCCGC | 0.144 | 0.0887 | 0.0262 | 0.00537 |
| 37 | GGAAACCGGCUCCCC | 0.272 | 0.0742 | 0.00742 | 0 |
| 38 | GGAAACCGGGCGCCC | 0.256 | 0.101 | 0 | 0.00537 |
| 39 | GGAAACCGGGCGGAC | 0.192 | 0.122 | 0.0121 | 0 |
| 40 | GGAAACCGGGGGCAC | 0.128 | 0.0922 | 0.0128 | 0 |
| 41 | GGAAACCGGGUCUGC | 0.160 | 0.0516 | 0 | 0 |
| 42 | GGAAACCGGUAUUAC | 0.224 | 0.297 | 0.162 | 0.108 |
| 43 | GGAAACCGUAAGAGC | 0.256 | 0.352 | 0.151 | 0.00537 |
| 44 | GGAAACCGUAGAUGC | 0.352 | 0.0922 | 0.00539 | 0 |
| 45 | GGAAACCGUCAAUAC | 0.240 | 0.291 | 0.108 | 0.0287 |
| 46 | GGAAACCGUCAGGAC | 0.208 | 0.525 | 0.126 | 0.0391 |
| 47 | GGAAACCGUCUAGGC | 0.256 | 0.176 | 0.0121 | 0.0158 |
| 48 | GGAAACCGUCUGUGC | 0.176 | 0.418 | 0.0928 | 0.0107 |
| 49 | GGAAACCGUGCACUC | 0.336 | 0.0993 | 0.0249 | 0 |
| 50 | GGAAACCGUGGGCUC | 0.304 | 0.0622 | 0 | 0 |
| 51 | GGAAACCGUUAAUGC | 0.288 | 0.262 | 0.109 | 0.0711 |
| 52 | GGAAACCGUUGAACC | 0.160 | 0.115 | 0.00668 | 0 |
| 53 | GGAAACCGUUUAUUC | 0.208 | 0.460 | 0.123 | 0.0161 |

The first 3 entries again:

sequence,pool,inoculated region,leaf margin,systemic leaves
GGAAACCGAACGGAC,0.288,0.0976,0.00539,0
GGAAACCGAAUCCCC,0.288,0.0685,0.00668,0
GGAAACCGAAUGCAC,0.304,0.0876,0,0

The authors trace changes outside the varied positions to PCR and sequencing errors or to mutation in the plant; presence does not show that a variant is infectious alone. Samples held 43,870 to 66,106 reads, so the smallest values rest on one or two reads.

Source: Wu et al. 2024 (doi:10.1371/journal.ppat.1012142), supplementary data.